Measured values from several laboratories, pooled; numbers as filed in NIAID ChemDB.

Shared fields: growth or infection tests; organism: HIV-1; endpoint: EC50

Blank or dashed fields: not listed here.

compound	strain	mutations	cell line	read by	setting	result
Nc1ccn(C[C@@H](CO)OCP(=O)(O)O)c(=O)n1	IIIB		CD4+HELA + HeLa	p24		3 µM
CNc1ncnc2c1ncn2[C@@H]1O[C@@H](CO)C[C@H]1F			PBM			>100 µM
Cc1ccnc2c1NC(=O)c1cccnc1N2C1CC1	HXB2D		CBMC	RT activity		0.032 µM
O=C1N(Cc2ccc(CO)cc2)[C@H](Cc2ccccc2)[C@H](O)[C@@H](O)[C@@H](Cc2ccccc2)N1Cc1ccc(CO)cc1	Clinical isolate E		PBMC	p24		0.018 µM
Cc1cc(C#N)cc(C)c1Oc1nc(Nc2ccc(C#N)cc2)nc(N)c1Br	MJ4 C (WT)		HEK293T	luciferase		0.0012 µM
Nc1ccn([C@H]2CC[C@@H](CO)O2)c(=O)n1	MN		PBL	p24		0.04 µM
C[C@H](Cn1cnc2c(N)ncnc21)OCP(=O)(O)O	NL4-3		MDM			6.114 µM
Nc1ncnc2c1ncn2CCOCP(=O)(O)O	HXB2D (RT-M184V)	RT-M184V	CBMC	p24		0.3 ± 0.05 µM
CC(C)=CCOc1cc(NC(=S)c2ccoc2C)ccc1Cl	NL4-3	(36G)N42T N43K	TZM-bl	luminescence		>2000 µM
O=c1[nH]c(=O)n([C@@H]2O[C@@H](CO)C[C@H]2F)cc1Br			PBM			>100 µM
CC[C@H](C)[C@H](C(=O)O)N1C[C@H](CN2CCC(c3cc(Cc4ccc(OC(C)C)cc4)nn3CC)CC2)[C@@H](c2cccc(F)c2)C1	BaL		HeLa	β-galactosidase	50% human serum	<0.033 µM
Cc1cn([C@H]2C[C@H](N=[N+]=[N-])[C@@H](CO)O2)c(=O)[nH]c1=O	CLADE F		PBL	p24		0.002 µM
Nc1nc2c(ncn2CCOCP(=O)(O)O)c(=O)[nH]1	IIIB		PBMC + H-PBMC			0.3 µM
Cc1cc(S(N)(=O)=O)ccc1NC(=O)COc1ccc(Cl)cc1C(=O)c1cc(Cl)cc(C#N)c1	NNRTI-resistant (RT V106M)	RT-V106M	MAGI	β-galactosidase		0.0013 µM
CC(=O)N1CCC(C(=O)N(CCCN2CCC(Cc3ccc(C(N)=O)cc3)CC2)c2ccc(C)c(Cl)c2)CC1	R5 subtype B_4 recombinant		U87 (CD4+ CCR5+) + U87	luciferase		0.0072 µM
COc1cc(C(F)(F)F)cc(S(=O)(=O)c2cccc(N)c2C#N)c1		RT-L100I K103N	HeLa + HELA CD4+	β-galactosidase		19 µM
CCn1nc(Cc2ccc(OC3CC3)cc2)cc1C1CCN(C[C@H]2CN([C@@H](C(=O)O)C3CCCCC3)C[C@@H]2c2cccc(F)c2)CC1	BaL		HeLa	β-galactosidase	50% human serum	<0.033 µM
C/C(=C(/CCO)SS/C(CCO)=C(\C)N(C=O)Cc1cnc(C)nc1N)N(C=O)Cc1cnc(C)nc1N	RF		U-937/HIV-1(RF) + U-937	p24		>125 µM
Nc1nc(NC2CC2)c2ncn([C@H]3C=C[C@@H](CO)C3)c2n1	NL4-3		MDM			0.003 µM
CC(C)(C)NC(=O)[C@@H]1C[C@@H]2CCCC[C@@H]2CN1C[C@@H](O)[C@H](Cc1ccccc1)NC(=O)[C@H](CC(N)=O)NC(=O)c1ccc2ccccc2n1	IIIB/LAI		HUT-78/IIIB/LAI + HUT 78	virus yield		0.3 µM
C#C[C@]1(CO)O[C@@H](n2cnc3c(N)nc(F)nc32)C[C@@H]1O	Clinical isolate	M41L/M184V	MT4-GFP	fluorescence		0.00598 µM
Nc1ccn([C@@H]2CS[C@H](CO)O2)c(=O)n1	4755-5 NRTI resistant recombinant	RT-M41L E44D D67N T69D Y118I M184V L210W T215Y	PBMC	RT activity		>10 µM
Cc1cc(Cl)cc(S(=O)(=O)c2cccc(N)c2C#N)c1		RT-Y188C	HeLa + HELA CD4+	β-galactosidase		1.7 µM
O=C1CCCN1CCCN1CC(=O)N2CC(N(CCOc3ccccc3)S(=O)(=O)c3cccc(F)c3)C[C@H]2C1=O	BaL		HeLaP4	β-galactosidase		0.197 µM
CC[C@H](C)[C@H](C(=O)O)N1C[C@H](CN2CCC(c3cc(Cc4ccc(OCc5ccccc5)cc4)nn3CC)CC2)[C@@H](c2cccc(F)c2)C1	BaL		HeLa	β-galactosidase		<0.0037 µM
COc1ccc(CN[C@@H](C(=O)N[C@H]2c3ccccc3C[C@H]2O)[C@H](O)[C@H](Cc2ccccc2)NC(=O)[C@@H](NC(=O)OCc2ccccc2)C(C)(C)C)cc1	HEM		Primary T4 cells + T4	p24		0.12 µM
Cc1cc(O)cc(S(=O)(=O)c2cccc(N)c2C#N)c1		RT-E138K	HeLa + HELA CD4+	β-galactosidase		0.08 µM
Nc1nc(=O)n([C@@H]2CS[C@H](CO)O2)cc1F	NL4-3	M184V	TZM-gfp	GFP		>100 µM
Cc1cn([C@H]2C=C[C@@H](CO)O2)c(=O)[nH]c1=O	G3 R5 subtype G/- (env/gag)	RT-V35T E40D K173T R211K L214F	PBMC	p24		0.1 µM
Nc1ccn([C@H]2CC[C@@H](CO)O2)c(=O)n1	NL4-3		Primary T lymphocytes			0.115 µM
Cc1cn([C@H]2C[C@H](N=[N+]=[N-])[C@@H](CO)O2)c(=O)[nH]c1=O	J179-1 Clinical isolate ZDV-resistant	RT-M41L D67N L210W T215Y	HT4 + HeLa	syncytia		2.6 µM
CCn1nc(Cc2cc(C(F)(F)F)cc(C(F)(F)F)c2)cc1C1CCN(C[C@H]2CN([C@@H](C(=O)O)C(C)(C)C)C[C@@H]2c2cccc(F)c2)CC1	BaL		HeLa	β-galactosidase		<0.011 µM
Cc1cn([C@H]2C[C@H](N=[N+]=[N-])[C@@H](CO)O2)c(=O)[nH]c1=O	52534-2 NRTI resistant recombinant	RT-M41L T69ins L74V M184V L210W T215Y	PBMC	RT activity		0.0548 µM
O=C(O)P(=O)(O)O	LAI viral clone (RT-H208Y)	RT-H208Y	HT4LACZ-1 + HT4 LacZ-1	syncytia		67 µM
Cc1ccnc2c1NC(=O)c1cccnc1N2C1CC1	Clinical isolate	TC-2	C8166	ELISA		0.0962 µM
COc1ccc(OC[C@@H]2CNCC[C@H]2c2ccccc2)cc1	IIIB		MOLT-3	p24		>4 µg/mL
CONc1nc(=O)n([C@H]2C[C@H](N=[N+]=[N-])[C@@H](CO)O2)cc1C	LAV-Bru		CEM-C113 + CEM/C113	cytopathic effect / MTT		23.6 µM
Nc1nc(=O)n([C@@H]2CO[C@H](CO)S2)cc1F	4205(RT-M184V)	RT-M184V	CBMC	RT activity		>100 µM
Nc1nc(=O)n([C@H]2O[C@@H](CO)C[C@H]2F)cc1F			PBM			48 µM
O=C1O[C@H]2[C@@H]3OC(=O)c4cc(O)c(O)c(O)c4-c4c(cc(O)c(O)c4O)C(=O)OC[C@H]2O[C@@H](OC(=O)c2cc(O)c(O)c(O)c2)[C@@H]3OC(=O)c2cc(O)c(O)c3c2[C@@H]2C1=CC(=O)[C@](O)(O3)C2(O)O	NNRTI-resistant (RT L100I) ARP1016	RT-L100I	MAGI			1.62 µg/mL
CCc1c(C(=O)c2cc(C)cc(C)c2)n(CC2CC=CC2)c(=O)[nH]c1=O	IIIB		U-937	cytopathic effect / XTT		0.01 µM
CCCCCCCCCCCCCC(=O)OC[C@@H](COP(=O)(O)OC[C@@H]1CC[C@H](n2cc(C)c(=O)[nH]c2=O)O1)OC(=O)CCCCCCCCCCCCC	BRU		CEM/TK-	p24		>100 µM
Cn1c2ccccc2c2c1cc(C#N)c(=O)n2-c1ccc([N+](=O)[O-])cc1	NL4-3 WT		HeLa	luciferase		0.023 µM
Nc1nc(=O)n([C@@H]2CS[C@H](CO)O2)cc1F		4xAZT	Primary T lymphocytes	p24 / ELISA		0.2 µM
Cc1c(C#N)cc(C(F)F)cc1Oc1c(C(F)(F)C(F)F)ncn(Cc2cc(F)c[nH]c2=O)c1=O			MT4-GFP	GFP		0.0397 µM
Nc1ccn([C@@H]2CS[C@H](CO)O2)c(=O)n1		M184V	Primary T lymphocytes	p24 / ELISA		>10 µM
S=C(NCCc1cccs1)Nc1ccc(Br)cn1	J179-1 Clinical isolate NRTI-resistant	RT-M41L D67N L210W T215Y	HT4 + HeLa	plaque count		0.055 µM
Cc1ccnc2c1NC(=O)c1cccnc1N2C1CC1	HXB2	RT-M41L T215Y	HT4 + HT4 LacZ-1	plaque count		0.05 µM
OCCN1CCN(CC/C=C2\c3ccccc3Sc3ccc(C(F)(F)F)cc32)CC1	IIIB		MOLT-3	RT activity		<10 µg/mL
C=C(COCP(=O)(O)O)Cn1cnc2c(=O)[nH]c(N)nc21	IIIB		PBMC + H-PBMC			1.5 µM
COC(=O)[C@H](C)NP(=O)(OC[C@@H]1C=C[C@H](n2cc(C)c(=O)[nH]c2=O)O1)Oc1ccc(Br)cc1	Y270-7 NRTI resistant	RT-M41W Y188L T215N	PBMC	p24		0.009 µM
CN1CC[C@@H](c2ccccc2)[C@H](COc2ccc3c(c2)OCCO3)C1	IIIB		MOLT-3	p24		>0.8 µg/mL
Cc1cn([C@H]2C=C[C@@H](CO)O2)c(=O)[nH]c1=O	Recombinant	RT-A62T V118I M184V	HeLa	luciferase		1.34 µM
CNCCC=C1c2ccccc2CCc2ccccc21	IIIB		MOLT-3	RT activity		>1 µg/mL
CSc1ccn([C@H]2C[C@H](N=[N+]=[N-])[C@@H](CO)O2)c(=O)n1	LAV-Bru		CEM-C113 + CEM/C113	cytopathic effect / MTT		10.6 µM
Cc1cn([C@H]2C[C@H](N=[N+]=[N-])[C@@H](CO)O2)c(=O)[nH]c1=O	4242 (RT-M41L K70R T215Y)	RT-M41L K70R T215Y	CBMC	RT activity		0.007 µM
Fc1ccc([C@@H]2CCNC[C@H]2COc2ccc3c(c2)OCCO3)cc1	IIIB		MOLT-3	p24		>4 µg/mL
CCCN(C)C(=O)Oc1nsnc1-c1c(Cl)ccc(N)c1Cl	IIIB		MAGI	MTT		0.019 µM
Cc1cn([C@H]2C=C[C@@H](CO)O2)c(=O)[nH]c1=O	RTMC		CD4+HELA + HeLa	plaque count		1.7 ± 0.28 µM
CCn1nc(Cc2ccc(F)c(F)c2)cc1C1CCN(C[C@H]2CN([C@@H](C(=O)O)C(C)C)C[C@@H]2c2cccc(F)c2)CC1	BaL		HeLa	β-galactosidase	50% human serum	<0.3 µM
Nc1ccn([C@H]2CC[C@@H](CO)O2)c(=O)n1	HXB2	Dideoxynucleoside-resistant (RT L74V)	HELA/CD4 + HELA CD4+	plaque count		1.15 µM
CC[C@H](C)[C@H](C(=O)O)N1C[C@H](CN2CCC(c3cc(Cc4ccc(Oc5ccccc5)cc4)nn3CC)CC2)[C@@H](c2cccc(F)c2)C1	BaL		HeLa	β-galactosidase	50% human serum	<0.1 µM
COC(=O)[C@H](C)NP(=O)(OC[C@@H]1C=C[C@H](n2cc(C)c(=O)[nH]c2=O)O1)Oc1ccc(Br)cc1	X165-9 Clinical isolate ZDV-resistant	RT-K20R D67N K103N T215Y	PBMC	p24		0.002 µM
CNC(=O)c1ccc(OC(C)C(=O)N2CCN(C(=O)c3ccccc3)C[C@H]2C)c(OC)c1	NL4-3		HeLaP4	β-galactosidase		0.047 µM
Cc1ccnc2c1NC(=O)c1cccnc1N2C1CC1	NL4-3	+Vpx	Jurkat cells			0.095 µM
Nc1nc(=O)n([C@H]2CO[C@@H](CO)S2)cc1F	4205(RT-M184V)	RT-M184V	CBMC	RT activity		15 µM
Nc1ccn([C@H]2C=C[C@@H](CO)O2)c(=O)n1	HXB2	RT-V75T	CD4+HELA + HeLa	plaque count		3.7 µM
Cc1cc(Br)cc(S(=O)(=O)c2cccc(N)c2C#N)c1		RT-E138K	HeLa + HELA CD4+	β-galactosidase		0.017 µM
Nc1nc(=O)n([C@H]2O[C@@H](CO)C[C@H]2F)cc1Br			PBM			>100 µM
COc1ccc(OC[C@@H]2CNCC[C@H]2c2ccc(F)cc2)cc1	IIIB		MOLT-3	syncytia		>4 µg/mL
Cc1cn([C@H]2C[C@H](N=[N+]=[N-])[C@@H](CO)O2)c(=O)[nH]c1=O	A018A (RT-WT)		HT4 + HT4-6C	plaque count		0.01 µM
Nc1nc(=O)n([C@@H]2CS[C@H](CO)O2)cc1F	RTMC (RT D67N K70R T215F K219Q)	RT-D67N K70R T215F K219Q	HT4 + HT4 LacZ-1	plaque count		0.4 µM
N#CC[C@H](C1CCCC1)n1cc(-c2ncnc3[nH]ccc23)cn1			Macrophage	p24 / ELISA		0.3 µM
Cc1cn([C@H]2C[C@H](N=[N+]=[N-])[C@@H](CO)O2)c(=O)[nH]c1=O	A018A Clinical isolate		HT4 + HT4-6C	plaque count		0.01 µM
Nc1ccn([C@H]2O[C@@H](CO)C[C@H]2F)c(=O)n1			PBM			16.4 µM
Cc1ccnc2c1NC(=O)c1cccnc1N2C1CC1	RTMN (RT-M41L T215Y)	RT-M41L T215Y	HT4 + HT4 LacZ-1	plaque count		0.1 µM

The last 6 rows once more:

compound,strain,mutations,cell line,read by,setting,result
Cc1cn([C@H]2C[C@H](N=[N+]=[N-])[C@@H](CO)O2)c(=O)[nH]c1=O,A018A (RT-WT),,HT4 + HT4-6C,plaque count,,0.01 µM
Nc1nc(=O)n([C@@H]2CS[C@H](CO)O2)cc1F,RTMC (RT D67N K70R T215F K219Q),RT-D67N K70R T215F K219Q,HT4 + HT4 LacZ-1,plaque count,,0.4 µM
N#CC[C@H](C1CCCC1)n1cc(-c2ncnc3[nH]ccc23)cn1,,,Macrophage,p24 / ELISA,,0.3 µM
Cc1cn([C@H]2C[C@H](N=[N+]=[N-])[C@@H](CO)O2)c(=O)[nH]c1=O,A018A Clinical isolate,,HT4 + HT4-6C,plaque count,,0.01 µM
Nc1ccn([C@H]2O[C@@H](CO)C[C@H]2F)c(=O)n1,,,PBM,,,16.4 µM
Cc1ccnc2c1NC(=O)c1cccnc1N2C1CC1,RTMN (RT-M41L T215Y),RT-M41L T215Y,HT4 + HT4 LacZ-1,plaque count,,0.1 µM

Conditions beyond the fields shown may differ between rows. ECn is the concentration giving n% inhibition of infection, replication or growth.